In the supplement of paper PMC9262897, “Low-cost anti-mycobacterial drug discovery using engineered E. coli” (Nature Communications, 2022):
± gives the standard deviation of the averaged measurements. Most of the lowest values are listed elsewhere, so they are rarer here than in the full data.

These compounds were tested on E. coli TESEC Mtb Asd (assay: growth (OD600 after 10 h); higher = more growth (less inhibition)). Conditions: arabinose induction (level): High; compound 0.1 mM; raw OD600 reference: median of DMSO wells 0.331, cell-free background 0.041.
Description: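 TESEC E. coli strains in which the native enzyme is deleted and replaced by arabinose-inducible Mtb Asd, DapB, CysH or TrpD, each grown in its selective medium. Strains were screened against the Prestwick library at 0.1 mM and 1% DMSO in 384-well format at low and high arabinose induction. Growth is read as OD600 after 10 h in triplicate.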

| SMILES | growth |
| --- | --- |
| COc1cc(Br)c(C[N+]2(CCOCCC3CCC4CC3C4(C)C)CCOCC2)cc1OC (configuration not stated) [Pinaverium bromide] | 0.0512 ± 0.0011 |

Same assay, conditions: arabinose induction (level): Low; compound 0.1 mM; raw OD600 reference: median of DMSO wells 0.417, cell-free background 0.041

| SMILES | growth |
| --- | --- |
| COc1cc(Br)c(C[N+]2(CCOCCC3CCC4CC3C4(C)C)CCOCC2)cc1OC (configuration not stated) [Pinaverium bromide] | 0.0523 ± 0.0023 |
